Reference: patent US20220089698A1, “ANTIBODIES THAT TARGET HIV GP120 AND METHODS OF USE” (published 2022)

Experiments:
Assay in all cases: cell-based or functional assay
[1] = molecular target: T1, HIV-1 envelope glycoprotein gp120 of viral isolate 8176 (HIV-1)
[2] = molecular target: T1, HIV-1 envelope glycoprotein gp120 of …; remark: listed apart in the source
[3] = molecular target: T2, HIV-1 envelope glycoprotein gp120 of viral isolate 302076 (HIV-1)
[4] = molecular target: T3, HIV-1 envelope glycoprotein gp120 of viral isolate 8398 (HIV-1)
[5] = molecular target: T1, HIV-1 envelope glycoprotein gp120 of …; remark: listed apart in the source
[6] = molecular target: T2, HIV-1 envelope glycoprotein gp120 of …; remark: listed apart in the source
[7] = molecular target: T3, HIV-1 envelope glycoprotein gp120 of …; remark: listed apart in the source
[8] = molecular target: T1, HIV-1 envelope glycoprotein gp120 of …; remark: listed apart in the source
[9] = molecular target: HIV-1 envelope glycoprotein gp120 of viral clone VS008 (HIV-1)
[10] = molecular target: HIV-1 envelope glycoprotein gp120 of viral clone VS044 (HIV-1)
[11] = molecular target: HIV-1 envelope glycoprotein gp120 of viral clone VS030 (HIV-1)
[12] = molecular target: HIV-1 envelope glycoprotein gp120 of viral clone VS049 (HIV-1)
[13] = molecular target: HIV-1 envelope glycoprotein gp120 of viral clone VS026 (HIV-1)
[14] = molecular target: HIV-1 envelope glycoprotein gp120 of viral clone VS032 (HIV-1)
[15] = molecular target: HIV-1 envelope glycoprotein gp120 of viral clone VS023 (HIV-1)
[16] = molecular target: HIV-1 envelope glycoprotein gp120 of viral clone VS033 (HIV-1)
[17] = molecular target: HIV-1 envelope glycoprotein gp120 of viral clone VS042 (HIV-1)
[18] = molecular target: HIV-1 envelope glycoprotein gp120 of viral clone VS011 (HIV-1)
[19] = molecular target: HIV-1 envelope glycoprotein gp120 of viral clone VS046 (HIV-1)
[20] = molecular target: HIV-1 envelope glycoprotein gp120 of viral clone VS034 (HIV-1)
[21] = molecular target: HIV-1 envelope glycoprotein gp120 of viral clone VS001 (HIV-1)
[22] = molecular target: HIV-1 envelope glycoprotein gp120 of viral clone VS029 (HIV-1)
[23] = molecular target: HIV-1 envelope glycoprotein gp120 of viral clone VS007 (HIV-1)
[24] = molecular target: HIV-1 envelope glycoprotein gp120 of viral clone VS052 (HIV-1)
[25] = molecular target: HIV-1 envelope glycoprotein gp120 of viral clone VS004 (HIV-1)
[26] = molecular target: HIV-1 envelope glycoprotein gp120 of viral clone VS010 (HIV-1)
[27] = molecular target: HIV-1 envelope glycoprotein gp120 of viral clone VS002 (HIV-1)
[28] = molecular target: HIV-1 envelope glycoprotein gp120 of viral clone VS003 (HIV-1)
[29] = molecular target: HIV-1 envelope glycoprotein gp120 of viral clone VS017 (HIV-1)
[30] = molecular target: HIV-1 envelope glycoprotein gp120 of viral clone VS038 (HIV-1)
[31] = molecular target: HIV-1 envelope glycoprotein gp120 of viral isolate 92US657 (HIV-1)
[32] = molecular target: HIV-1 envelope glycoprotein gp120 of viral isolate 92US712 (HIV-1)
[33] = molecular target: T1, HIV-1 envelope glycoprotein gp120 of …; remark: listed apart in the source
[34] = molecular target: T2, HIV-1 envelope glycoprotein gp120 of …; remark: listed apart in the source
[35] = molecular target: T3, HIV-1 envelope glycoprotein gp120 of …; remark: listed apart in the source
[36] = molecular target: T1, HIV-1 envelope glycoprotein gp120 of …; remark: listed apart in the source
[37] = molecular target: T2, HIV-1 envelope glycoprotein gp120 of …; remark: listed apart in the source
[38] = molecular target: T3, HIV-1 envelope glycoprotein gp120 of …; remark: listed apart in the source

B1: Antibody A-1 (antibody, human IgG1, kappa)
heavy: QVQLLQSGAAVTKPGASVRVSCEASGYNIRDYFIHWWRQAPGQGLQWVGWINPKTGQPNNPRQFQGRVSLTRHASWDFDTFSFYMDLKALRSDDTAVYFCARQRSDYWDFDVWGSGTQVTVSSASTKGPSVFPLAPSSKSTSGGTAALGCLVKDYFPEPVTVSWNSGALTSGVHTFPAVLQSSGLYSLSSVVTVPSSSLGTQTYICNVNHKPSNTKVDKKVEPKSCDKTHTCPPCPAPELLAGPDVFLFPPKPKDTLMISRTPEVTCVVVDVSHEDPEVKFNWYVDGVEVHNAKTKPREEQYNSTYRVVSVLTVLHQDWLNGKEYKCKVSNKALPLPEEKTISKAKGQPREPQVYTLPPSREEMTKNQVSLTCLVKGFYPSDIAVEWESNGQPENNYKTTPPVLDSDGSFFLYSKLTVDKSRWQQGNVFSCSVLHEALHSHYTQKSLSLSPGK
light: not shown
Killing EC50 by neutrophils, donor 92132 [1]: 0.231 µg/mL | Killing EC50 by neutrophils, donor 92602 [1]: 1.1 µg/mL | Killing AUC by NK cells, donor 0117 [2]: 108 | Killing AUC by NK cells, donor 3594 [2]: 142 | Killing AUC by NK cells, donor 0117 [3]: 116 | Killing AUC by NK cells, donor 3594 [3]: 76 | Killing AUC by NK cells, donor 0117 [4]: 4 | Killing AUC by NK cells, donor 3594 [4]: 6 | Killing EC50 by monocytes, donor 0117 [5]: 0.402 µg/mL | Killing EC50 by monocytes, donor 3594 [5]: 0.309 µg/mL | Killing EC50 by monocytes, donor 0117 [6]: 6.51 µg/mL | Killing EC50 by monocytes, donor 3594 [6]: 0.062 µg/mL | Killing EC50 by monocytes, donor 0117 [7]: > 100 µg/mL | Killing EC50 by monocytes, donor 3594 [7]: > 100 µg/mL | Killing AUC by neutrophils, donor 92132 [8]: 74 | Killing AUC by neutrophils, donor 92602 [8]: 47 | ADCC Emax (%) average from two donors [9]: 60% | ADCC Emax (%) average from two donors [10]: 31.4% | ADCC Emax (%) average from two donors [11]: 39.3% | ADCC Emax (%) average from two donors [12]: 7.8% | ADCC Emax (%) average from two donors [13]: 31.3% | ADCC Emax (%) average from two donors [14]: 29.1% | ADCC Emax (%) average from two donors [15]: 0.8% | ADCC Emax (%) average from two donors [16]: 31.1% | ADCC Emax (%) average from two donors [17]: 39.6% | ADCC Emax (%) average from two donors [18]: 34.6% | ADCC Emax (%) average from two donors [19]: 41.9% | ADCC Emax (%) average from two donors [20]: 40.6% | ADCC Emax (%) average from two donors [21]: 26.8% | ADCC Emax (%) average from two donors [22]: 1.5% | ADCC Emax (%) average from two donors [23]: 45% | ADCC Emax (%) average from two donors [24]: 34% | ADCC Emax (%) average from two donors [25]: 31.7% | ADCC Emax (%) average from two donors [26]: 69% | ADCC Emax (%) average from two donors [27]: 22.9% | ADCC Emax (%) average from two donors [28]: 44.4% | ADCC Emax (%) average from two donors [29]: 40.5% | ADCC Emax (%) average from two donors [30]: 36.1% | ADCC EC50 (µg/mL), NK Donor 1, 92US657-infected cells [31]: 0.74 µg/mL | ADCC EC50 (µg/mL), NK Donor 2, 92US657-infected cells [31]: 0.55 µg/mL | ADCC EC50 (µg/mL), NK Donor 3, 92US657-infected cells [31]: 0.37 µg/mL | ADCC Emax (%), NK Donor 1, 92US657-infected cells [31]: 58% | ADCC Emax (%), NK Donor 2, 92US657-infected cells [31]: 50% | ADCC Emax (%), NK Donor 3, 92US657-infected cells [31]: 52% | ADCC EC50 (µg/mL), NK Donor 1, 92US712-infected cells [32]: 0.19 µg/mL | ADCC EC50 (µg/mL), NK Donor 2, 92US712-infected cells [32]: 0.09 µg/mL | ADCC EC50 (µg/mL), NK Donor 3, 92US712-infected cells [32]: 0.16 µg/mL | ADCC Emax (%), NK Donor 1, 92US712-infected cells [32]: 77% | ADCC Emax (%), NK Donor 2, 92US712-infected cells [32]: 62% | ADCC Emax (%), NK Donor 3, 92US712-infected cells [32]: 62% | Killing EC50 by NK cells, donor 0117 [33]: 1.1 µg/mL | Killing EC50 by NK cells, donor 3594 [33]: 0.518 µg/mL | Killing EC50 by NK cells, donor 0117 [34]: 1.7 µg/mL | Killing EC50 by NK cells, donor 3594 [34]: 2.61 µg/mL | Killing EC50 by NK cells, donor 0117 [35]: > 100 µg/mL | Killing EC50 by NK cells, donor 3594 [35]: > 100 µg/mL | Killing AUC by monocytes, donor 0117 [36]: 83 | Killing AUC by monocytes, donor 3594 [36]: 141 | Killing AUC by monocytes, donor 0117 [37]: 54 | Killing AUC by monocytes, donor 3594 [37]: 166 | Killing AUC by monocytes, donor 0117 [38]: 0 | Killing AUC by monocytes, donor 3594 [38]: 13
